Data from ChEMBL document CHEMBL1139988, “Discovery of structurally diverse HIV-1 integrase inhibitors based on a chalcone pharmacophore” (Bioorg Med Chem, 2007).

By UniProt entry, the sequences of proteins in these tests, tags left out. Residues count along the entry.
UniProt Q7ZJM1, 1-288: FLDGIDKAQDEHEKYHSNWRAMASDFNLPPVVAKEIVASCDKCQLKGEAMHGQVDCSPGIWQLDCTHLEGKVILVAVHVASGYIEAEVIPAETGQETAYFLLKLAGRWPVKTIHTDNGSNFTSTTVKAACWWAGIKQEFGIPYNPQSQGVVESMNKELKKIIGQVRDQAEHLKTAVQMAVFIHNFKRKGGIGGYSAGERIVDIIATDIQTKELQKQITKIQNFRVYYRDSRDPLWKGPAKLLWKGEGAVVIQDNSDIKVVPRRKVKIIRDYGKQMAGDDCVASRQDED

Tests used:
[1] = molecular target: T1, Human immunodeficiency virus type 1 integrase (Human immunodeficiency virus 1, UniProt Q7ZJM1); experiment: Inhibition of HIV1 integrase 3'-end processing activity
[2] = molecular target: T1, Human immunodeficiency virus type 1 integrase; experiment: Inhibition of HIV1 integrase strand transfer activity

Compound: CC(C)CN1C(N/N=C/c2cc(Br)ccc2O)=NC2C1C(=O)NC(=O)N2C (configuration not stated)
- IC50 [1]: 65 µM
- IC50 [2]: 53 µM
